# Assay results taken from publication PMC2666729.
# How the values were obtained:
# [1] = tested on: P. aeruginosa topoisomerase I (PAT), type IB (Pseudomonas aeruginosa UCBPP-PA14); test: EMSA; settings: recombinant protein, label: 5'-32P on top strand
# [2] = tested on: PAT Y292F (Pseudomonas aeruginosa UCBPP-PA14); test: EMSA; settings: recombinant protein, label: 5'-32P on top strand
sequence,measurement,setting,value
CCTAGGCTACACCTACTCTTTGTAAGAATTAAGCTTC (double strand) [37 bp no loops (perfect duplex)],binding result,"[1]; no MgCl2, no discrete complex up to 712 fmol PAT, aggregates marked, EMSA: 50 fmol DNA in 20 ul, 50 mM Tris pH 8.0, 2.5 mM MgCl2 (omitted in Fig. 9B), 0.1 mM EDTA, 0.67 M NaCl, 8-32% glycerol (varies by lane), 1 h at 37 C",no binding
CCTAGGCTACACCTACTCTTTGTAAGAATTAAGCTTC / GAAGCTTAATTCAAACAAAGAGTTCGTGTAGCCTAGG [37 bp loops],binding result,"[2]; 2.5 mM MgCl2, 0.53-18.8 pmol protein",binds
same,binding result,"[1]; 2.5 mM MgCl2, more stable than perfect duplex, EMSA: 50 fmol DNA in 20 ul, 50 mM Tris pH 8.0, 2.5 mM MgCl2 (omitted in Fig. 9B), 0.1 mM EDTA, 0.67 M NaCl, 8-32% glycerol (varies by lane), 1 h at 37 C",binds
CGTGTCGATTCCGACGTCCCTTGCATTTATCAATTAT (double strand) [37 bp VacSeq],binding result,[2],binds
same,binding result,"[1]; 2.5 mM MgCl2, two complexes plus aggregates, MgCl2 has no effect on complex formation",binds

# The exact form of at least one protein or probe is not confirmed. For some assays here: A negative result means that nothing was seen under these conditions. For some assays here: At least one verdict rests on a figure or table, not on a statement of the authors.
